The structures given here were assigned with low confidence; some may be wrong.

The target in this assay is HCV-NS5b (Hepatitis C virus genotype 1b, UniProt Q9WMX2). The experiment in a line: HCV-NS5b enzyme assay using homopolymer substrate. Type of assay: biochemical. The conditions noted are these: [3H]-UTP incorporation, 30° C., 90 minutes. The text has this: The coding sequence of NS5b protein was cloned by PCR from pFKI389luc/NS3-3′/ET as described by Lohmann, V., et al. (1999) Science 285, 110-113 using the primers shown on page 266 of WO 2005/012288
The cloned fragment is missing the C terminus 21 amino acid residues. The cloned fragment was inserted into an IPTG-inducible (isopropyl-β-D-thiogalactopyranoside) expression plasmid that provides an epitope tag (His)6 at the carboxy terminus of the protein.
The recombinant enzyme was expressed in XL-1 cells and after induction of expression, the protein was purified using affinity chromatography on a nickel-NTA (nitrilotriacetic acid) column. Storage condition was 10 mM Tris-HCl pH 7.5, 50 mM NaCl, 0.1 mM EDTA (ethylenediaminetetraacetic acid), 1 mM DTT (dithiothreotol), 20% glycerol at −20° C.
The polymerase activity was assayed by measuring incorporation of radiolabeled UTP into a RNA product using a biotinylated, homopolymeric template. The template was formed by annealing adenosine homopolymer to uridine 20-mer capped with a 5′-biotin group (biotin-U^20) in the ratio of 1:4. […] Incorporation of radioactivity was determined by scintillation counting. […]
The table below lists the IC50 values of compounds determined using the homopolymer substrates.

`O=C(O)c1ccc2c(C3CCCCC3)c3n(c2c1)CCCCn1cc(CN2CCOCC2)c2cccc-3c21` displayed an IC50 of 0.128 µM.

Usually IC50 stands for the concentration needed to halve the response being measured. Low values mean greater potency in that assay, high ones weaker potency in that assay.

The values are drawn from patent US20090197856A1, “ANTIVIRAL COMPOUNDS” (Genelabs Technologies, Inc., priority 2007, published 2009).
